Target: T1, recombinant human HER2 antigen (human)
T1 construct: also called human HER2 protein
Assay: pH range ELISA, IgG at 100 ng/mL on plate-coated recombinant human HER2; pH of 50% binding activity (pH 6.0 = 100%)

B1: VH-A106E/VL-A032D (antibody, V domains shown)
VH: [about 120 residues with changes skipped]
VL: DIQMTQSPSSLSASVGDRVTITCRASQDVNTDVAWYQQKPGKAPKLLIYSASFLYSGVPSRFSGSRSGTDFTLTISSLQPEDFATYYCQQHYTTPPTFGQGTKVEIK
notes: also called VH-A1063/VL-A032D; A106E/A032D
  pH Inflection Point Calculation: 6.61 pH

— patent US20230072955A1 (EXUMA BIOTECH, published 2023)
